Compound potency records, mixed from different reports. Data source: NIAID ChemDB in PubChem.

Shared fields: target-level tests; agent: HIV-1; protein: Protease; endpoint: IC50

Rows are shuffled and stem from different studies.

{"SMILES": "CC(C)(C)NC(=O)c1ccccc1C[C@@H](O)[C@H](Cc1ccccc1)NC(=O)[C@H](CCC(=O)O)NC(=O)c1ccc2ccccc2n1", "read by": "fluorescence", "value": "0.013 µg/mL"}
{"SMILES": "COC(=O)[C@]12CCC(C)(C)CC1C1=CCC3[C@@]4(C)CC[C@H](NC(=O)CCCCC(=O)O)C(C)(C)C4CC[C@@]3(C)[C@]1(C)CC2", "read by": "HPLC", "value": "3 µM"}
{"SMILES": "CCC(C)[C@H](NC(=O)[C@H](Cc1ccccc1)[C@@H](O)C[C@H](Cc1ccccc1)NC(=O)[C@H](Cc1cnc[nH]1)NC(=O)COc1cccc2ccccc12)C(=O)NCc1ccccn1", "read by": "HPLC", "value": "0.8 µM"}
{"SMILES": "CC(C)(CO)NC(=O)[C@@H]1CCCN1C(=O)[C@@H](O)[C@H](Cc1ccccc1)NC(=O)[C@H](CC(N)=O)NC(=O)OCc1ccccc1", "value": ">0.05 µM"}
{"SMILES": "CC(C)(C)NC(=O)c1ccccc1C[C@@H](O)[C@H](Cc1ccccc1)NC(=O)[C@H](CC(N)=O)NC(=O)OCc1ccccc1", "read by": "fluorescence", "value": "0.001 µg/mL"}
{"SMILES": "CC(C)(C)OC(=O)N1C2C3C4N(C(=O)OC(C)(C)C)C5C(C1C5(CO)[C@H]3c1ccccc1)[C@@H](c1ccccc1)C24CO", "value": "0.072 µM"}
{"SMILES": "CCCCC(CC(O)[C@H](CCCC)NC(=O)[C@@H](NC(=O)[C@@H](NC(=O)c1ccccc1N)[C@@H](C)O)[C@@H](C)CC)C(=O)N[C@@H](CCC(N)=O)C(=O)N[C@@H](CCCN=C(N)N)C(N)=O", "read by": "fluorescence", "value": "0.038 µM"}
{"SMILES": "CC(C)(C)NC(=O)[C@@H]1C2CCCCC2CCN1C(=O)[C@@H](O)[C@H](Cc1ccccc1)NC(=O)[C@H](CS(C)(=O)=O)NC(=O)COc1cccc2ccccc12", "value": ">0.05 µM"}
{"SMILES": "CC1(C)CC2C3=CCC4[C@@]5(C)CC[C@H](O)C(C)(C)C5CC[C@@]4(C)[C@]3(C)CC[C@@]2(C)[C@H](O)C1", "read by": "HPLC", "value": "18.8 µM"}
{"SMILES": "CC(C)(C)NC(=O)c1ccccc1C[C@@H](O)[C@H](Cc1ccccc1)NC(=O)[C@H](CC(=O)O)NC(=O)c1ccc2ccccc2n1", "read by": "fluorescence", "value": "0.013 µg/mL"}
{"SMILES": "COC(=O)CCCOc1ccc2ccc(OCCCC(=O)N[C@H](C(=O)N[C@@H](CC(C)C)C(=O)N[C@@H](CC(N)=O)C(=O)N[C@@H](Cc3ccccc3)C(=O)OC)[C@@H](C)O)cc2c1", "read by": "fluorescence", "value": ">7 µM"}
{"SMILES": "CCC(C)(C)NC(=O)[C@@H]1CSCN1C(=O)[C@@H](O)[C@H](Cc1ccccc1)NC(=O)[C@H](CS(C)(=O)=O)NC(=O)COc1cccc2ccccc12", "value": "<0.05 µM"}
{"SMILES": "COC(=O)[C@]12CCC(C)(C)CC1C1=CCC3[C@@]4(C)CC[C@H](NC(=O)CCCCC(=O)NCCCC(=O)O)C(C)(C)C4CC[C@@]3(C)[C@]1(C)CC2", "read by": "HPLC", "value": "6 µM"}
{"SMILES": "CC(C)(C)OC(=O)N[C@@H](CC(N)=O)C(=O)N[C@@H](Cc1ccccc1)[C@H](O)C(=O)NCC1CCCCC1", "value": "~1000 µM"}
{"SMILES": "C[C@H](CS(C)(=O)=O)C(=O)N[C@@H](Cc1ccccc1)[C@H](O)CN1C[C@H]2CCCC[C@H]2C[C@H]1C(=O)NC(C)(C)C", "read by": "fluorescence", "value": "0.002 µM"}
{"SMILES": "CCOC1C[C@@H](C(=O)NC(C)(C)C)N(C(=O)[C@@H](O)[C@H](Cc2ccccc2)NC(=O)[C@H](CS(C)(=O)=O)NC(=O)COc2cccc3ccccc23)C1", "value": ">0.05 µM"}
{"SMILES": "CC1(C)CC[C@]2(C(=O)O)CC[C@]3(C)C(=CCC4[C@@]5(C)CC[C@H](NC(=O)CCCCC(=O)O)C(C)(C)C5CC[C@]43C)C2C1", "read by": "HPLC", "value": "3 µM"}
{"SMILES": "CC(C)(C)NC(=O)c1ccccc1C[C@@H](O)[C@H](CC1CCCCC1)NC(=O)[C@H](CC(N)=O)NC(=O)c1ccc2cccc(F)c2n1", "read by": "fluorescence", "value": "0.0029 µg/mL"}
{"SMILES": "CC1(C)CC[C@]2(C(=O)NCCCCCC(=O)O)CC[C@]3(C)C(=CCC4[C@@]5(C)CC[C@H](OC(=O)CCCCC(=O)O)C(C)(C)C5CC[C@]43C)C2C1", "read by": "HPLC", "value": "1.7 µM"}
{"SMILES": "CCCC[C@H](NC(=O)[C@@H](NC(=O)[C@@H](NC(=O)c1cnc2ccccc2n1)[C@@H](C)O)[C@@H](C)CC)C(O)CC(Cc1ccc2ccccc2c1)C(=O)N[C@@H](CCC(N)=O)C(=O)N[C@@H](CCCN=C(N)N)C(N)=O", "read by": "fluorescence", "value": "0.085 µM"}
{"SMILES": "COC(=O)CCCNC(=O)CCCCC(=O)N[C@H]1CC[C@@]2(C)C(CC[C@]3(C)C2CC=C2C4CC(C)(C)CC[C@]4(C(=O)OC)CC[C@]23C)C1(C)C", "read by": "HPLC", "value": ">20 µM"}
{"SMILES": "CCCC[C@H](NC(=O)[C@@H](NC(=O)[C@@H](NC(=O)c1cnc2ccccc2n1)[C@@H](C)O)[C@@H](C)CC)C(=O)CC(Cc1ccc2ccccc2c1)C(=O)N[C@@H](CCC(N)=O)C(N)=O", "read by": "fluorescence", "value": "1.11 µM"}
{"SMILES": "COC(=O)[C@]12CCC(C)(C)C[C@H]1C1=CC[C@@H]3[C@@]4(C)CC[C@H](O)C(C)(C)[C@@H]4CC[C@@]3(C)[C@]1(C)CC2", "read by": "HPLC", "value": "20 µM"}
{"SMILES": "CC(C)(C)NC(=O)[C@@H]1C=C(c2ccccc2)CN1C(=O)[C@@H](O)[C@H](Cc1ccccc1)NC(=O)[C@H](CC(N)=O)NC(=O)OCc1ccccc1", "value": "~0.05 µM"}
{"SMILES": "CCCC[C@H](NC(=O)[C@@H](NC(=O)c1cnc2ccccc2n1)[C@@H](C)CC)C(=O)CC(Cc1ccc2ccccc2c1)C(=O)N[C@@H](CCC(N)=O)C(N)=O", "read by": "fluorescence", "value": "7.98 µM"}

Repeating the first 4 entries:

| SMILES | read by | value |
|---|---|---|
| CC(C)(C)NC(=O)c1ccccc1C[C@@H](O)[C@H](Cc1ccccc1)NC(=O)[C@H](CCC(=O)O)NC(=O)c1ccc2ccccc2n1 | fluorescence | 0.013 µg/mL |
| COC(=O)[C@]12CCC(C)(C)CC1C1=CCC3[C@@]4(C)CC[C@H](NC(=O)CCCCC(=O)O)C(C)(C)C4CC[C@@]3(C)[C@]1(C)CC2 | HPLC | 3 µM |
| CCC(C)[C@H](NC(=O)[C@H](Cc1ccccc1)[C@@H](O)C[C@H](Cc1ccccc1)NC(=O)[C@H](Cc1cnc[nH]1)NC(=O)COc1cccc2ccccc12)C(=O)NCc1ccccn1 | HPLC | 0.8 µM |
| CC(C)(CO)NC(=O)[C@@H]1CCCN1C(=O)[C@@H](O)[C@H](Cc1ccccc1)NC(=O)[C@H](CC(N)=O)NC(=O)OCc1ccccc1 | - | >0.05 µM |

ICn is the concentration giving n% inhibition. Blank or dashed fields: not listed here.